Here are results for twelve molecules from the supplement of paper PMC9931576.

Numbering of substitutions follows the chain as printed. Human monoclonal antibodies against the spike receptor-binding domain (heavy:light variable regions). IC50 against pseudoviruses bearing the spike of naturally observed variants; lower = stronger; >10 µg/ml means not reached at the top dose. No active / inactive call. The stated detection limit is 0.0005 µg/ml; values near or below 0.001 µg/ml lie at the floor of the assay. Where only a bound is given, the exact number is not on record here.

Sequences and labels used below:
B1: XG2v-006 (protein)
chain 1: EVQLVESGGGLIQPGRSLRLSCAASGFTVSSEYMSWVRQAPGKGLECVSVIYSGGSTYYADSVRGRFTISRDNSKNTLYLQMNSLRAEDTAVYFCARDGGPLWFGELGGMDAWGQGTTVTVSS
chain 2: DIQMTQSPSSLSASVGDRVTITCRASQSISSYLNWYQQKPGKAPKLLIYAASNFQSGVPSRFSGSGSGTDFTLTINSLQPEDFATYYCQQSYSPLRTFGQGTKVEIK
B2: BD55-948 (protein)
chain 1: QVHLVQSGAEVKKPGASVKVSCKASGYTFTTYGISWVRQAPGQGLEWMGWIIPYNGATNYAQNLQGRVTMTTDTSTTTAYMELRSLRSDDTALYYCARVGAYYDRSGHFTAENENFQHWGQGTLVTVSS
chain 2: QSVLTQPPSVSGAPGQRVTISCTGSSSNIGAGYDVHWYQQLPGTAPKVLIYGNSNRPSGVPDRFSGSKSGTSASLAITGLQAEDEADYYCQSYDSSLSGHVVFGGGTKLTVL
B3: XGv-008 (protein)
chain 1: QLQLQESGPGLVKPSETLSLTCTVSGGSISSSRYYWGWIRQPPGKGLEWIGSLYYSGGTYFNPSLKSRVTISVDTSKNQFSLKLTSVTAADTAVYYCARDHYGDYALVYWGQGTLVTVSS
chain 2: B2 chain 2 with V48L, N53H, S54N, K68Q, S95T, G99A, H100L, V101Y, G105T, L109V
B4: XG2v-070 (protein)
chain 1: QVQLVESGGGVVQPGRSLRLSCAASGFTFSSYGMHWVRQAPGKGLEWVAVIWYDGSNKYYADSVKGRFTISRDNSKNTLYLHMNSLRAEDTAVYYCAREYFYDSSDFYYEYYFDYWGQGTLVTVSS
chain 2: QSALTQPRSVSGSPGQSVTISCTGTSSDVGGYNYVSWYQQHPGKAPKLMIYDVSKRPSGVPDRFSGSKSGNTASLTISGLQAEDEADYYCCSYAGSYTYVFGTGTKVTV
B5: BD55-944 (protein)
chain 1: EVQLVESGGGLLQPGGSLSLSCAASGIIVSRNYMSWVRQAPGKGLEWVSIIYSGGTTYYANFAKGRFTISRDNSKNTLYLQMNSLRAEDTAVYYCARDVHGSGRLDYWGQGTLVTVSS
chain 2: QSALTQPASVSGSPGQSITISCTGTSSDVGGYNFVSWYQQHPGKAPKLMIYDVNNRPSGVSDRFSGSKSGNTASLTISGLQAEDEADYYCNSYTTIDTVEFGGGTKLTVL
B6: XGv-023 (protein)
chain 1: EVQLVESGGDLVQPGGSLRLSCAASGFTFGSYDMHWVRQHTGKGLEWVSAIGTAGDTYYADSVKGRFIISRDNAKNSMYLQMTSLRAGDSALYYCARGGIVGYTYGNWYFDIWGRGSLVTVSP
chain 2: DIQMTQSPSSLTASVGDRVTITCRASQTISNYLNWYQHKPGKAPKLLIYAASSLESGVPSRFTGSGSGTDFTLTISSLQPEDFATYYCQQSYTMPPITFGQGTRLEIK
B7: XGv-003 (protein)
chain 1: QVQLVQSGAEVKRPGSSVKVSCKASGGTFRNYAINWVRQAPGQGLEWMGGIIRLFDRTDYAQKFQGRITIIADEDTNTAYMELRSLRSEDTGVYYCARGRALTRGILATMTVDVWGQGTTVTVSS
chain 2: DIVMTQSPDSLAVSLGERATINCKSSQSLLYSSNNKNFLGWSQQKPGQPPKLLIYWASTRESGVPDRFSGSGSGTDFTLTISSLQPEDVAIYYCHQYYSIPLTFGGGTKVEIK
B8: BD55-942 (protein)
chain 1: EVQLVQSGAEVKKPGESLKISCKGSGYSFTTYWIAWVRQMPGKGLEWMGIIYPYDSDTRYSPSSHGQVTISADKSITTAYLQWSSLKASDTAIYYCVRQTTLNTHLDYWGQGTLVTVSS
chain 2: QSVLTQPPSASGTPGQRVTISCSGSSSNIGSNTVNWYQQLPGTAPKLLIYSNKERPSGVPDRFSGSKSGTSASLAISGLQSEDEADYYCGAWDDSLNGVVFGGGTKLTVL
B9: XG2v-004 (protein)
chain 1: EVQLVQSGAEVKKPGESLKISCKGSGYSFTSYWIGWVRQMPGKGLEWMGIIYPGDSDTRYSPSFQGQVTISADKSISTAYLQWSSLKASDTAMYYCATGYYGSGSYSAFDIWGQGTMVTVSS
chain 2: QSVLTQPPSASGTPGQRVTISCSGSSSNIGSNTVNWYQQLPGTAPKLLIYNNNQRPSGVPDRFSGSKSGTSASLAISGLQSEDEADYYCAAWDDSLNGRWVFGGGTK
B10: XG2v-033 (protein)
chain 1: EVQLVESGGGVVRPGGSLRLSCAASGFTFDDYGMNWVRQAPGKGLEWVSGINWNGGRTGYADSVKGRFTISRDNAKNSLYLQMNSLRAEDTALYHCARVYCGNDCYSLVLAPNDAFDIWGQGTMVTVSS
chain 2: QSVLTQPPSASGTPGQRVTISCSGSSSNIGSNTVNWYQQLPGTAPKLLIYNNNQRPSGVPDRFSASKSGTSASLAISGLQSEDEADYYCAAWDDSLNGPVFGGGTK
B11: XGv-011 (protein)
chain 1: QVQLVESGGGVVQPGRSLRLSCAASGFIFSSYVLHWVRQAPGKGLEWVALISYDGRRQYYADSVKGRFTISRANANNTLFLQMNSLRTEDTAVYYCTTGDDPYRSAWYTQFDYWGQGALVTVSS
chain 2: QSVLTQPPSASGTPGQKVTISCSGSSSNIGSNSVNWYQQVPGTAPKLLIYDNTQRPSGVPDRFSGSKSATSASLAISGLQSHDEADYYCAAWDDSLHVVFGGGTKLTVL
B12: XGv-013 (protein)
chain 1: EVQLVESGGGLVQPGGSLRLSCAASGITVSSNYMTWVRQAPGKGLEWVSVIYAGGSTFYADSVKGRFTISRDNSKNTLYLQMNSLRVEDTAVYYCARDLVDYGMDVWGQGTTVTVSS
chain 2: DIQLTQSPSFLSASVGDRVTITCRASQGIASYLAWYQQKPGKAPKLLIYAASTLQSGVPTRFSGSGSGTEFTLTIRSLQPEDSATYYCQHPSGHPPTFGGGTKVEI

For one test, the target named is SARS-CoV-2 Omicron BA.1 spike pseudovirus. The test is described as follows: pseudovirus neutralization IC50; higher = weaker neutralization. As for the experimental part: (§1)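 Single-round VSV luciferase pseudovirus mixed with antibody dilutions for 1 h and put on Huh-7 cells for about a day; IC50 from the dose curve.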
With B1, the “pseudovirus neutralization IC50” value was determined as 0.657 µg/mL.

Turning to B2, the “pseudovirus neutralization IC50” value amounted to 1.08 µg/mL.

Regarding B3, the “pseudovirus neutralization IC50” value is more than 10 µg/mL.

In the case of B4, the “pseudovirus neutralization IC50” value was more than 10 µg/mL.

With B5, the “pseudovirus neutralization IC50” value is more than 10 µg/mL.

For B6, the “pseudovirus neutralization IC50” value is more than 10 µg/mL.

Turning to B7, the “pseudovirus neutralization IC50” value was more than 10 µg/mL.

With B8, the “pseudovirus neutralization IC50” value is more than 10 µg/mL.

For B9, the “pseudovirus neutralization IC50” value is more than 10 µg/mL.

B10: the “pseudovirus neutralization IC50” value was 3.4 µg/mL.

B11: the “pseudovirus neutralization IC50” value was 0.593 µg/mL.

For B12, the “pseudovirus neutralization IC50” value was found to be 0.00558 µg/mL.

A further test deals with SARS-CoV-2 Omicron BA.2 spike pseudovirus. The description is as above. As for the experimental part:
as §1
B1: the “pseudovirus neutralization IC50” value is 0.777 µg/mL.

Consider B2, for which the “pseudovirus neutralization IC50” value is more than 10 µg/mL.

With B3, the “pseudovirus neutralization IC50” value is more than 10 µg/mL.

As to B4, the “pseudovirus neutralization IC50” value is more than 10 µg/mL.

Consider B5, for which the “pseudovirus neutralization IC50” value was more than 10 µg/mL.

Regarding B6, the “pseudovirus neutralization IC50” value was more than 10 µg/mL.

With B7, the “pseudovirus neutralization IC50” value is more than 10 µg/mL.

Take B8: the “pseudovirus neutralization IC50” value was more than 10 µg/mL.

B9: the “pseudovirus neutralization IC50” value was more than 10 µg/mL.

With B10, the “pseudovirus neutralization IC50” value stood at 3 µg/mL.

On to B11, for which the “pseudovirus neutralization IC50” value turned out to be 0.625 µg/mL.

Consider B12, for which the “pseudovirus neutralization IC50” value is 0.001 µg/mL.

The target of the next test is SARS-CoV-2 Omicron BA.2.75 spike pseudovirus. The description is as above. The procedure: as §1
For the molecule B1, the “pseudovirus neutralization IC50” value was determined as 0.818 µg/mL.

Turning to B2, the “pseudovirus neutralization IC50” value was more than 10 µg/mL.

Take B3: the “pseudovirus neutralization IC50” value was more than 10 µg/mL.

With B4, the “pseudovirus neutralization IC50” value is more than 10 µg/mL.

In the case of B5, the “pseudovirus neutralization IC50” value is more than 10 µg/mL.

Turning to B6, the “pseudovirus neutralization IC50” value is more than 10 µg/mL.

On to B7, for which the “pseudovirus neutralization IC50” value was more than 10 µg/mL.

Regarding B8, the “pseudovirus neutralization IC50” value is more than 10 µg/mL.

On to B9, for which the “pseudovirus neutralization IC50” value was more than 10 µg/mL.

B10: the “pseudovirus neutralization IC50” value is 1.82 µg/mL.

Consider B11, for which the “pseudovirus neutralization IC50” value stood at 0.794 µg/mL.

On to B12, for which the “pseudovirus neutralization IC50” value was determined as 0.427 µg/mL.

The next test addresses SARS-CoV-2 Omicron BA.5 spike pseudovirus. Described as above. The procedure:
as §1
For B1, the “pseudovirus neutralization IC50” value was more than 10 µg/mL.

B2: the “pseudovirus neutralization IC50” value is more than 10 µg/mL.

On to B3, for which the “pseudovirus neutralization IC50” value is more than 10 µg/mL.

As for B4, the “pseudovirus neutralization IC50” value was more than 10 µg/mL.

With B5, the “pseudovirus neutralization IC50” value is more than 10 µg/mL.

Turning to B6, the “pseudovirus neutralization IC50” value is more than 10 µg/mL.

On to B7, for which the “pseudovirus neutralization IC50” value was more than 10 µg/mL.

In the case of B8, the “pseudovirus neutralization IC50” value was more than 10 µg/mL.

Consider B9, for which the “pseudovirus neutralization IC50” value is more than 10 µg/mL.

For B10, the “pseudovirus neutralization IC50” value came to 4.87 µg/mL.

Consider B11, for which the “pseudovirus neutralization IC50” value came out at 3.51 µg/mL.

As for B12, the “pseudovirus neutralization IC50” value is 0.0446 µg/mL.

For another test, the target named is SARS-CoV-2 Omicron BQ.1.1 spike pseudovirus. Described as above. As for the experimental part: as §1
Turning to B1, the “pseudovirus neutralization IC50” value was more than 10 µg/mL.

Take B2: the “pseudovirus neutralization IC50” value is more than 10 µg/mL.

On to B3, for which the “pseudovirus neutralization IC50” value was more than 10 µg/mL.

Regarding B4, the “pseudovirus neutralization IC50” value was more than 10 µg/mL.

With B5, the “pseudovirus neutralization IC50” value was more than 10 µg/mL.

For the molecule B6, the “pseudovirus neutralization IC50” value is more than 10 µg/mL.

For the molecule B7, the “pseudovirus neutralization IC50” value is more than 10 µg/mL.

As to B8, the “pseudovirus neutralization IC50” value was more than 10 µg/mL.

For the molecule B9, the “pseudovirus neutralization IC50” value was more than 10 µg/mL.

Take B10: the “pseudovirus neutralization IC50” value is 4.96 µg/mL.

As for B11, the “pseudovirus neutralization IC50” value is more than 10 µg/mL.

In the case of B12, the “pseudovirus neutralization IC50” value was more than 10 µg/mL.

For a further test, the target named is SARS-CoV-2 Omicron XBB spike pseudovirus. The description is as above. The procedure: as §1
For B1, the “pseudovirus neutralization IC50” value is more than 10 µg/mL.

Regarding B2, the “pseudovirus neutralization IC50” value was more than 10 µg/mL.

Regarding B3, the “pseudovirus neutralization IC50” value was more than 10 µg/mL.

Regarding B4, the “pseudovirus neutralization IC50” value was more than 10 µg/mL.

As to B5, the “pseudovirus neutralization IC50” value was more than 10 µg/mL.

In the case of B6, the “pseudovirus neutralization IC50” value was more than 10 µg/mL.

As to B7, the “pseudovirus neutralization IC50” value was more than 10 µg/mL.

In the case of B8, the “pseudovirus neutralization IC50” value is more than 10 µg/mL.

Turning to B9, the “pseudovirus neutralization IC50” value is more than 10 µg/mL.

With B10, the “pseudovirus neutralization IC50” value worked out at 5 µg/mL.

For B11, the “pseudovirus neutralization IC50” value was more than 10 µg/mL.

Take B12: the “pseudovirus neutralization IC50” value was more than 10 µg/mL.

For the next test, the target named is SARS-CoV-2 early D614G spike pseudovirus. Described as above. As for the experimental part:
as §1
Turning to B1, the “pseudovirus neutralization IC50” value worked out at 0.843 µg/mL.

Regarding B2, the “pseudovirus neutralization IC50” value amounted to 0.162 µg/mL.

With B3, the “pseudovirus neutralization IC50” value was determined as 1.48 µg/mL.

B4: the “pseudovirus neutralization IC50” value was determined as 7.1 µg/mL.

Turning to B5, the “pseudovirus neutralization IC50” value was more than 10 µg/mL.

On to B6, for which the “pseudovirus neutralization IC50” value was more than 10 µg/mL.

Take B7: the “pseudovirus neutralization IC50” value amounted to 0.561 µg/mL.

For B8, the “pseudovirus neutralization IC50” value is more than 10 µg/mL.

With B9, the “pseudovirus neutralization IC50” value is more than 10 µg/mL.

In the case of B10, the “pseudovirus neutralization IC50” value amounted to 0.148 µg/mL.

As to B11, the “pseudovirus neutralization IC50” value turned out to be 0.0254 µg/mL.

Turning to B12, the “pseudovirus neutralization IC50” value was found to be 0.00851 µg/mL.
